Results published in patent publication US20070049564A1 (Wyeth, priority 2005, published 2007).

What was measured:
Assay in all cases: MIC, broth microdilution
[1] = system: Salmonella spp. GC 235
[2] = system: S. cholerasius GC 1355
[3] = system: Salmonella spp. GC 566

CCC(C)(C)C(=O)OCOC(=O)N(CC(=O)Nc1cc(N(C)C)c2c(c1O)C(=O)C1=C(O)[C@]3(O)C(=O)C(C(N)=O)=C(O)[C@@H](N(C)C)[C@@H]3C[C@@H]1C2)C(C)(C)C [Example 44, ({[(2-{[(5aR,6aS,7S,10aS)-9-(aminocarbonyl)-4,7-bis(dimethylamino)-1,8,10a,11-tetrahydroxy-10,12-dioxo-5,5a,6,6a,7,10,10a,12-octahydrotetracen-2-yl]amino}-2-oxoethyl)(tert-butyl)amino]carbonyl}oxy)methyl 2,2-dimethylbutanoate]
MINIMAL INHIBITORY CONCENTRATION MIC ([1]; pre-incubated in Human Serum): >64 UG/ML | MINIMAL INHIBITORY CONCENTRATION MIC ([1]; pre-incubated in Mouse Serum): 4 UG/ML | MINIMAL INHIBITORY CONCENTRATION MIC ([1]; pre-incubated in Water): >64 UG/ML | MINIMAL INHIBITORY CONCENTRATION MIC ([2]; pre-incubated in Human Serum): >64 UG/ML | MINIMAL INHIBITORY CONCENTRATION MIC ([2]; pre-incubated in Mouse Serum): 16 UG/ML | MINIMAL INHIBITORY CONCENTRATION MIC ([2]; pre-incubated in Water): >64 UG/ML | MINIMAL INHIBITORY CONCENTRATION MIC ([3]; pre-incubated in Human Serum): >64 UG/ML | MINIMAL INHIBITORY CONCENTRATION MIC ([3]; pre-incubated in Mouse Serum): 8 UG/ML | MINIMAL INHIBITORY CONCENTRATION MIC ([3]; pre-incubated in Water): >64 UG/ML

CC(C)C(=O)OCOC(=O)N(CC(=O)Nc1cc(N(C)C)c2c(c1O)C(=O)C1=C(O)[C@]3(O)C(=O)C(C(N)=O)=C(O)[C@@H](N(C)C)[C@@H]3C[C@@H]1C2)C(C)(C)C [Example 45, ({[(2-{[(5aR,6aS,7S,10aS)-9-(aminocarbonyl)-4,7-bis(dimethylamino)-1,8,10a,11-tetrahydroxy-10,12-dioxo-5,5a,6,6a,7,10,10a,12-octahydrotetracen-2-yl]amino}-2-oxoethyl)(tert-butyl)amino]carbonyl}oxy)methyl 2-methylpropanoate]
MINIMAL INHIBITORY CONCENTRATION MIC ([1]; pre-incubated in Human Serum): 8 UG/ML | MINIMAL INHIBITORY CONCENTRATION MIC ([1]; pre-incubated in Mouse Serum): 1 UG/ML | MINIMAL INHIBITORY CONCENTRATION MIC ([1]; pre-incubated in Water): >64 UG/ML | MINIMAL INHIBITORY CONCENTRATION MIC ([2]; pre-incubated in Human Serum): 32 UG/ML | MINIMAL INHIBITORY CONCENTRATION MIC ([2]; pre-incubated in Mouse Serum): 4 UG/ML | MINIMAL INHIBITORY CONCENTRATION MIC ([2]; pre-incubated in Water): >64 UG/ML | MINIMAL INHIBITORY CONCENTRATION MIC ([3]; pre-incubated in Human Serum): 32 UG/ML | MINIMAL INHIBITORY CONCENTRATION MIC ([3]; pre-incubated in Mouse Serum): 2 UG/ML | MINIMAL INHIBITORY CONCENTRATION MIC ([3]; pre-incubated in Water): >64 UG/ML

CN(C)c1cc(NC(=O)CN(C(=O)OCOC(=O)C2CCCC2)C(C)(C)C)c(O)c2c1C[C@H]1C[C@H]3[C@H](N(C)C)C(O)=C(C(N)=O)C(=O)[C@@]3(O)C(O)=C1C2=O [Example 46, ({[(2-{[(5aR,6aS,7S,10aS)-9-(aminocarbonyl)-4,7-bis(dimethylamino)-1,8,10a,11-tetrahydroxy-10,12-dioxo-5,5a,6,6a,7,10,10a,12-octahydrotetracen-2-yl]amino}-2-oxoethyl)(tert-butyl)amino]carbonyl}oxy)methyl cyclopentanecarboxylate]
MINIMAL INHIBITORY CONCENTRATION MIC ([1]; pre-incubated in Human Serum): 16 UG/ML | MINIMAL INHIBITORY CONCENTRATION MIC ([1]; pre-incubated in Mouse Serum): 1 UG/ML | MINIMAL INHIBITORY CONCENTRATION MIC ([1]; pre-incubated in Water): >64 UG/ML | MINIMAL INHIBITORY CONCENTRATION MIC ([2]; pre-incubated in Human Serum): 32 UG/ML | MINIMAL INHIBITORY CONCENTRATION MIC ([2]; pre-incubated in Mouse Serum): 2 UG/ML | MINIMAL INHIBITORY CONCENTRATION MIC ([2]; pre-incubated in Water): >64 UG/ML | MINIMAL INHIBITORY CONCENTRATION MIC ([3]; pre-incubated in Human Serum): 16 UG/ML | MINIMAL INHIBITORY CONCENTRATION MIC ([3]; pre-incubated in Mouse Serum): 2 UG/ML | MINIMAL INHIBITORY CONCENTRATION MIC ([3]; pre-incubated in Water): >64 UG/ML

Cc1ccc(C(=O)OCOC(=O)N(CC(=O)Nc2cc(N(C)C)c3c(c2O)C(=O)C2=C(O)[C@]4(O)C(=O)C(C(N)=O)=C(O)[C@@H](N(C)C)[C@@H]4C[C@@H]2C3)C(C)(C)C)cc1 [Example 47]
MINIMAL INHIBITORY CONCENTRATION MIC ([1]; pre-incubated in Human Serum): 64 UG/ML | MINIMAL INHIBITORY CONCENTRATION MIC ([1]; pre-incubated in Mouse Serum): 2 UG/ML | MINIMAL INHIBITORY CONCENTRATION MIC ([1]; pre-incubated in Water): >64 UG/ML | MINIMAL INHIBITORY CONCENTRATION MIC ([2]; pre-incubated in Human Serum): >64 UG/ML | MINIMAL INHIBITORY CONCENTRATION MIC ([2]; pre-incubated in Mouse Serum): 4 UG/ML | MINIMAL INHIBITORY CONCENTRATION MIC ([2]; pre-incubated in Water): >64 UG/ML | MINIMAL INHIBITORY CONCENTRATION MIC ([3]; pre-incubated in Human Serum): >64 UG/ML | MINIMAL INHIBITORY CONCENTRATION MIC ([3]; pre-incubated in Mouse Serum): 4 UG/ML | MINIMAL INHIBITORY CONCENTRATION MIC ([3]; pre-incubated in Water): >64 UG/ML
